Measured values from several laboratories, pooled; numbers as filed in NIAID ChemDB.

Shared fields: whole-cell or culture tests; organism: Rhinovirus; read-out: EC50

ECn is the concentration giving n% inhibition of infection, replication or growth. Neighbouring rows are from separate reports.

compound	method	strain	cell line	result
CSc1nsc(-c2ccc(OCCCc3ccccc3)cc2)c1C#N	cytopathic effect	Serotype 59 (group B)	HELA-OHIO	>20 µM
CN(C)c1nc(C(F)(F)F)nc2c1ncn2Cc1ccccc1	plaque count	Serotype 2	M-HELA	>8 µM
CCOC(=O)c1ccc(OCCCOc2ccc(-c3snc(SC)c3C#N)cc2)cc1	cytopathic effect	Serotype 41 (group B)	HELA-OHIO	>2 µM
CC(=O)Nc1ccc(Cn2cnc3c(Nc4cccc(F)c4)nc(C(F)(F)F)nc32)cc1	plaque count	Serotype 1B	M-HELA	0.4 µM
CSc1nsc(-c2ccc(OCCCOc3ccc(C#N)cc3)cc2)c1C#N	cytopathic effect	Serotype 89 (group B)	HELA-OHIO	>2 µM
Cc1cc(Cn2cnc3c(N(C)C)nc(C(F)(F)F)nc32)ccc1Cl	plaque count	Serotype 30	M-HELA	>8 µM
CCOC(=O)/C=C/[C@H](C[C@@H]1CCNC1=O)NC(=O)[C@@H](CC(=O)[C@@H](NC(=O)c1cc(C)on1)C(C)C)Cc1ccc(F)cc1	cytopathic effect / visual reading	Isolate 10	OHIO HELA-I	0.01 µg/mL
Cc1cc(Cl)ccc1Cn1cnc2c(N(C)C)nc(C(F)(F)F)nc21	plaque count	Serotype 4	M-HELA	>8 µM
CSc1nsc(-c2ccc(OCCCCOc3ccc(C#N)cc3)cc2)c1C#N	cytopathic effect	Serotype 85 (group B)	HELA-OHIO	>2 µM
CCO/N=C/c1ccc(OCCC2CCN(c3ccc(Cl)nn3)CC2)cc1	neutral red	1983-CV48 (ICAM-1 receptor group 66)	KB	0.02 µM
COc1ccc(-c2snc(SC)c2C#N)cc1	cytopathic effect	Serotype 63 (group B)	HELA-OHIO	>12 µM
CSc1nsc(-c2ccc(OCCCCOc3ccccc3)cc2)c1C#N	cytopathic effect	Serotype 63 (group B)	HELA-OHIO	>20 µM
Cc1cc(CCCCCOc2c(Cl)cc(C3=NCCO3)cc2Cl)on1	plaque count	TYPE 44	HeLa	0.055 µg/mL
CCOC(=O)c1ccc(OCCC2CCN(c3ccc(C)nn3)CC2)cc1	cytopathic effect	Serotype 41 (group B)	HELA-OHIO	0.7 µM
CC(C)Oc1ccc(Cn2cnc3c(N(C)C)nc(C(F)(F)F)nc32)cc1	plaque count	Serotype 19	M-HELA	>8 µM
CSc1nsc(-c2ccc(OC(C)(C)C)cc2)c1C#N	cytopathic effect	Serotype 2 (group B)	HELA-OHIO	5 µM
CN(C)c1nc(C(F)(F)F)nc2c1ncn2Cc1ccc(S(C)(=O)=O)cc1	plaque count	Serotype 18	M-HELA	>8 µM
Fc1cccc(Cn2cnc3c(Nc4cccc(F)c4)nc(C(F)(F)F)nc32)c1	plaque count	Serotype 6	M-HELA	>2.5 µM
CSc1nsc(-c2ccc(OCc3ccccc3)cc2)c1C#N	cytopathic effect	Serotype 14 (group A)	HELA-OHIO	25 µM
CN(C)c1nc(C(F)(F)F)nc2c1ncn2Cc1ccc(Cl)c(N)c1	plaque count	Serotype 5	M-HELA	>8 µM

The last 2 rows once more:

compound	method	strain	cell line	result
CSc1nsc(-c2ccc(OCc3ccccc3)cc2)c1C#N	cytopathic effect	Serotype 14 (group A)	HELA-OHIO	25 µM
CN(C)c1nc(C(F)(F)F)nc2c1ncn2Cc1ccc(Cl)c(N)c1	plaque count	Serotype 5	M-HELA	>8 µM